# Data taken from US20230374114A1, “Coronavirus antibodies and methods of use thereof” (Dana-Farber, published 2023).
# Columns and labels:
# B.1.1.7 Spike = B.1.1.7 Spike (SARS-CoV-2); assay: biosensor, scFv-Fc loaded at 1 ug/ml, spike in solution at 48.4 nM
# P.1 Spike = P.1 Spike (SARS-CoV-2); assay: biosensor, scFv-Fc loaded at 1 ug/ml, spike in solution at 48.3 nM
# B.1.351 Spike = B.1.351 Spike (SARS-CoV-2); assay: biosensor, scFv-Fc loaded at 1 ug/ml, spike in solution at 48.5 nM
Binder,Kd (B.1.1.7 Spike) [pM],Response (B.1.1.7 Spike),Kd (P.1 Spike) [pM],Response (P.1 Spike),Kd (B.1.351 Spike) [pM],Response (B.1.351 Spike)
"Ab 26 (scFv, V domains shown, also called Ab 26 scFv-Fc) VH: QVQLVQSGGGLVQPGRSLRLSCAASGFTFDDYAMHWVRQVPGKGLEWVSGIDWNSGVIGYADSVKGRFTISRDNAKNSLYLQMNSLRAEDTALYYCAKDAYSYGFLGAFDIWGQGTMVTVSS VL: LPVLTQPPSVSVAPGQTASITCGGDNIRTKGVHWYQQKPGQAPLLVIYYASDRPSGIPERFSGSSSGNTATLTISRVEAGDEADYYCQVWDSSSDLVVFGGGTTLTVL",1.37,0.336,10.3,0.188,1.78,0.214
"Ab 27 (scFv, V domains shown, also called Ab 27 scFv-Fc) VH: QVQLVQSGTEVKKPGASVKVSCKASGYSFTGSHLHWVRQAPGQGLEWMGWINPDSGVINYAQKFQGRVTLTRDTSISTAYMELSGLRSDDTAVYYCARDKAIGYVWALDYWGQGTLVTVSS VL: QSALTQPPSVSGSPGQSVTISCTGTSSDVGTYNRVSWYQQPPGKAPKLMIYEVSNRPSGVSNRFSGSKSGNTASLTISGLQAEDEADYYCSSYTRTFTYVFGTGTKVTVL",1.57,0.281,8.9,0.0795,1.25,0.0974
"Ab_19 (scFv, V domains shown, also called Ab 19 scFv-Fc) VH: EVQLVESGAEVKKPGESLKISCKGSGYSFTSYWIGWVRQMPGKGLEWMGIIYPGDSDTRYSPSFQGQVTISADKSISTAYLQWSSLKASDTAMYYCARRGDLDAFDIWGQGTMVTVSS VL: QPGLTQPPAASGTPGQRVTVSCSGASANIGSNAVSWFKQFPETAPRLLISGNTHRPSGVPDRVSGSKSGTSASLTISGLQSDDEADYYCAAWDDSLNGYVFGSGTKVTVL",10.3,0.203,8.94,0.204,11.8,0.258
"S1-RBD-R3-T1-F5 (Ab2-7) (scFv, V domains shown, also called Ab 2-7 scFv-Fc) VH: QVTLKESGPTRVKPTQTLTLTCTFSGFSLSTTGVGVGWIRQPPGKALEWLALIYWNDDKRYSPSLKSRLTITKDTSKNQVVLTMTNMDPVDTATYYCARISGSGYFYPFDIWGQGTTVTVSS VL: NFMLTQPHSVSESPGKTVTISCTRSSGSIASNYVQWYQQRPGSSPTTVIYEDNQRPSGVPDRFSGSIDSSSNSASLTISGLKAEDEADYYCQSYDSSSLWVFGGGTKLTVL",379,0.127,7.04,0.152,360,0.13
"Ab 20 (scFv, V domains shown, also called Ab 20 scFv-Fc) VH: QVQLVQSGGGSVKPGGSLRLSCAASGYRLSDYYMHWVRQAPGKGLEWVANIKQDGSEKYYVDSVKGRFTISRDNAKNSLYLQMNSLRAEDTAVYYCARVRGWSRGYFDYWGQGTLVTVSS VL: NFMLTQPHSVSESPGKTVTISCTGSSGSIASNYVQWYQQRPGSAPTTVIYEDNQRPSGVPDRFSGSIDSSSNSASLLISGLKTEDEADYYCQSYDSSNHWVFGGGTKLTVL",2.6,0.173,11.2,0.17,7.03,0.213
"Ab 25 (scFv, V domains shown, also called Ab 25 scFv-Fc) VH: QVQLVQSGGGLVQPGGSLRLSCAASGFTFSSYWMSWVRQAPGKGLEWVANIKQDGSEKYYVDSVKGRFTISRDNAKNSLYLQMNSLRAEDTAVYYCARGFYYYGAFDIWGQGTTVTVSS VL: NFMLTQPHSVSESPGKTVTISCTGSSGSIASNYVQWYQQRPGSAPTTVIYEDNQRPSGVPDRFSGSIGSSSNSASLTISGLKTEDEADYYCQSYDSSNHWVFGGGTKLTVL",427,0.0668,8.72,0.0396,1.13,0.0577
"RBD-R3-E1-G7 (Ab2-10) (scFv, V domains shown, also called Ab 2-10 scFv-Fc) VH: EVQLVESGPGLVKPSETLSLTCTVSGGSISSYYWSWIRQPAGKGLEWIGRIYTSGSTNYNPSLKSRVTMSVDTSKNQFSLKLSSVTAADTAVYYCARDVGFGWFDRWGQGTLVTVSS VL: NFMLTQPHSVSESPGKTVTISCTRSSGSIASNYVQWYQQRPGSSPTTVIYEDNQRPSGVPDRFSGSIDSSSNSASLTISGLTTEDEADYYCQSFDSASLWVFGGGTKLTVL",682,0.0939,6.67,0.0969,523,0.103
"Ab_13 (scFv, V domains shown) VH: QVTLKESGPKLVKPTQTLTLTCTFSGFSLSTSGVGVGWIRQPPGKALEWLALIYWDDDKRYSPSLKSRLTIAKDTSKYQVVLTMTNMDPVDTATYYCARISGSGYFYPFDIWGQGTMVTVSA VL: NFMLTQPHSVSESPGKTVTISCTRSSGSIASNYVQWYQQRPGSAPTTVIYEDNQRPSGVPDRFSGSIDSSSNSASLTISGLKTEDEADYYCQSYDSSNLWVFGGGTKLTVL",1.91,0.113,4.88,0.112,735,0.103
"Ab_17 (scFv, V domains shown, also called Ab 17 scFv-Fc) VH: QVQLVQSGGGVVQPGRSLRLSCAASGFTFDDYAMHWVRQVPGKGLEWVSGIDWNSGVIGYADSVKGRFTISRDNVKNSLYLQMNSLRTEDSALYYCAKDIGPGGSGSYYAFDIWGQGTTVTVSS VL: QSALTQPASVSGSPGQSITISCTGTSSDVGGSKYVSWYQQHPGKAPKVMIYDVTKRPSGVPDRFSGSKSGNTASLTISGLQAEDEADYYCAAWDDSLNGVVFGGGTKLTVL",,,8,0.177,562,0.199
"Ab 23 (scFv, V domains shown, also called Ab 23 scFv-Fc) VH: EVQLVQSGAEVKKPGSSVKVSCRSSGGTFSTYGITWVRQAPGQGLEWMGRIIPSLGIPNYAQKFQGRVTITADTSVSTAWMELSSLESDDTAIYYCARENIDLATNDFWGQGTLVTVSS VL: QSALTQPPSASGSPGQSVTISCTGTSRDIGAYGYVSWYQQVPGKAPKLIIYEVRNRPSGVSSRFSGSKSGNTASLTISGLQAEDEADYYCSSYTSSSTLDVVFGGGTKLTVL",9.11,0.135,8.79,0.123,7.58,0.189
"Ab_16 (scFv, V domains shown, also called Ab 16 scFv-Fc) VH: QVQLVQSGGGVVQPGRSLRLSCAASGFTFSNYGMHWVRQAPGKGLEWVALIWERGSKKDYADSVKGRFTVSRDNSKNTLYLQMNSLRPEDTAVYFCAREGISMTGAEYFQHWGQGTLVTVSS VL: QSVLTQPPSVSGSPGQRVTMSCTGSSSNIGAGYDVHWYQQVPGAAPRLLIYGTNNRPSGVPDRFSGSKSGTSASLTITGLQAEDEADYYCQSYDNSLTDPYVFGTGTKVTVL",2.36,0.388,7.93,0.35,< 1,0.405
"Ab_18 (scFv, V domains shown, also called Ab 18 scFv-Fc) VH: EVQLVQSGGGVVQPGRSLRVSCAASGFSFSRYGMHWVRQAPGKGLEWVAFIRHDGSKKYYADSVEGRFTISRDNSRNTVSLEMNSLRGEDTAVYYCAKDGRLEAALDDWGQGTLVTVSS VL: NFMLTQPHSMSGSAGKTVTVSCIRSSGSIANNFVQWYQQRPGSAPTTVIYEDNQRPSGVPDRFSGSIDSSSNSASLTISGLKTEDEADYYCQSYDSSNLVFGGGTRLTVL",9.28,0.256,2.97,0.109,1340,0.12
"Ab_14 (scFv, V domains shown, also called Ab 14 scFv-Fc) VH: QVQLQQSGPGLVKPSQTLSLTCAISGDSVSSNSAAWNWIRQSPARGLEWLGRTYYRSRWYNDYAISMKSRITINPDTSKNQFSLQLESVTPEDTAVYYCAREIRGFDYWGQGTLVTVSS VL: QSVLTQPPSASGSPGQSVTISCTGTSSDVGAYNFVSWYQHHPGKAPKLIIYDFNKRPSGVPDRFSGSKSGNTASLTVSGLQADDEADYYCSSYAGSNNFDVVFGGGTKLTVL",7.98,0.355,9.75,0.27,3.1,0.253
"S1-R3-T1-H7 (Ab12) (scFv, V domains shown, also called Ab 12 scFv-Fc) VH: EVQLVESGPGVVSPSATLFLTCSVSGGSIRTHSWNWIRQPPGKPLEWIGFIHHSGATNKNPSLKSRVTISSDTSKNEFSLTLTSVTAADTAVYYCARGPGILSYWSRGTLVTVSS VL: LPVLTQPPSASGTPGQRVTISCSGSSSNIGSNTVNWYQQLPGTAPKLLIYSNNQRPSGVPDRFSGSKSGTSASLAISGLQSEDEADYYCAAWDDSLNVHYVFGSGTKVTVL",2.73,0.177,8.55,0.0718,1450,0.0737
"Ab 21 (scFv, V domains shown, also called Ab 21 scFv-Fc) VH: QVQLVQSGGGLVQPGGSLRLSCATSGFTFDDYAMHWVRQAPGKGLEWVSGISWNSGSIGYVDSVKGRFTISRDNRNNKVYLQMNNLRAEDTAVYYCARDWWGSIDHWGLGTLVTVSS VL: QSALTQPRSVSGSPGQSVTISCTGTSSDVGGYDYVSWYQQHPGKAPKLIIYDVSKRPSGVPDRFSGSKSGNTASLTVSGLQAEDEADYYCSSYTSSSPVVFGGGTKLTVL",1.47,0.199,9.52,0.103,369,0.148
"RBD-R3-T1-F4 (Ab2-2) (scFv, V domains shown, also called Ab 2-2 scFv-Fc) VH: QVQLVQSGGGVVQPGRSLRLSCAASGFTFSHYDMHWVRQAPGKGLEWLAVIGYDGTNLYYADSVKGRFTISRDKSKNTLYLQINSLRAEDTAVYYCARAANYYDSSGYGRADAFDIWGQGTTVTVSS VL: NFMLTQPHSVSESPGKTVIISCTRTTGSIAGNYVQWYRQRPGSAPTTVIYDDNQRPAGVPDRFSGSVDSSSNSASLTITGLKTEDEADYYCQSYDSGNRGVFGTGTKLTVL",3.06,0.135,8.94,0.143,6.53,0.118
"Ab 22 (scFv, V domains shown, also called Ab 22 scFv-Fc) VH: QVQLVQSGGGVVQPGRSLRLSCAASGFTFSHYDMHWVRQAPGKGLEWLAVIGYDGTNLYYADSVKGRFTISRDKSKNTLYLQINSLRAEDTAVYYCARAANYYDSSGYGRADAFDIWGQGTTVTVSS VL: NFMLTQPHSVSESPGKTVIISCTRTTGSIAGNYVQWYRQRPGSAPTTVIYDDNQRPAGVPDRFSGSVDSSSNSASLTITGLKTEDEADYYCQSYDSGNRGVFGTGTKLTVL",9.13,0.148,8.85,0.136,3.18,0.183
